Results of unrelated studies side by side (data: NIAID ChemDB).

All rows: toxicity to cultured cells; measure: CC50

An empty or dashed field is not shown. Conditions beyond the fields shown may differ between rows. CCn: concentration that lowers growth or viability of the cells by n%. a–b is a range or a potency band.

compound,cell line,method,result
CN(c1ccc(N2CCOCC2)cc1)c1ncnc2ccc(I)cc12,HUH 9B,,1–10 µM
CC(C)(C(=O)O)C(=O)Nc1ccc(NS(=O)(=O)c2cccc3c(N)cccc23)cc1,Human embryonic lung fibroblasts,,>250 µM
O=C(C(=O)N1CCN(C(=O)c2ccccc2)CC1)c1c[nH]c2c(-n3cncn3)ccnc12,HeLa,trypan blue,>100 µM
CNC(=O)c1ccc(-n2c(-n3nc(C)cc3C)nc3c(c2=O)C[C@@H](C)N(C(=O)c2ccc(Br)c(C(F)(F)F)c2)C3)cc1N,HepG2.117,luminescence,>0.5 µM
CC(C)N(Cc1cccc(OCCCCCC(=O)OC(=O)O)c1)C(=O)c1ccc(-c2cccc(OC(F)(F)F)c2)cc1,BJ,,>20 µM
Cc1cc(C)n(-c2nc3c(c(=O)n2-c2ccc4c(cnn4C)c2)C[C@@H](C)N(C(=O)c2ccc(Br)c(C(F)(F)F)c2)C3)n1,HepG2.117,luminescence,>0.5 µM
CS(=O)(=O)CCNCc1ccc(-c2ccc3ncnc(Nc4ccc(N5CCOCC5)cc4)c3c2)o1,HUH 9B,,10–25 µM
CNC(=O)c1ccn(-c2ncc(OC)c3c(C(=O)C(=O)N4CCN(C(=O)c5ccccc5)CC4)c[nH]c23)n1,HeLa,trypan blue,>100 µM
Cc1cc(C)n(-c2nc3c(c(=O)n2-c2ccc(O)cc2)C[C@@H](C)N(C(=O)c2ccc(Br)c(C(F)(F)F)c2)C3)n1,HepG2.117,luminescence,>0.5 µM
CCCN([C@H](CO)CCC[C@H](C)NC(=O)[C@@H](NC(=O)OC)C(c1ccccc1)c1ccccc1)S(=O)(=O)c1ccc(CO)cc1,T lymphoid cells,microscopy,>10 µM
COc1cnc(-n2ccc(CO)n2)c2[nH]cc(C(=O)C(=O)N3CCN(C(=O)c4ccccc4)[C@H](C)C3)c12,HeLa,trypan blue,>100 µM
CNc1cccc2c(S(=O)(=O)Nc3ccc(NC(=O)C(C)(C)CO)cc3)cccc12,Human embryonic lung fibroblasts,,125 µM
CN(C)Cc1ccc(-c2ccc3ncnc(Nc4ccc(N5CCOCC5)cc4)c3c2)o1,HUH 9B,,10–25 µM
O=C1NNC(=O)c2c(ncn2[C@@H]2O[C@H](CO)[C@@H](O)[C@H]2O)N1,HFF (dividing cells),,>100 µM
CCOC(=O)CCCCCOc1cccc(CN(C(=O)c2ccc(-c3cn(S(=O)(=O)c4ccccc4)c4ccccc34)cc2)C(C)C)c1,BJ,,>20 µM
CC(C)(CO)C(=O)Nc1ccc(NS(=O)(=O)c2cccc3ccccc23)cc1,Mouse fibroblast cell lines,,94 µM
COC(=O)N[C@H](C(=O)N[C@H](CCC[C@@H](CO)N(CCC(C)C)S(=O)(=O)c1ccc(N)c(F)c1)C(C)C)C(c1ccccc1)c1ccccc1,T lymphoid cells,microscopy,>10 µM
c1csc(-c2ccc3ncnc(Nc4ccc(N5CCOCC5)cc4)c3c2)n1,HUH 9B,,>25 µM
CN(C)c1cccc2c(S(=O)(=O)Nc3ccc(NC(=O)C(C)(C)CF)cc3)cccc12,Human embryonic lung fibroblasts,,56 µM
Cc1cc(C)n(-c2nc3c(c(=O)n2-c2ccc(NC[C@@H](C)O)nc2)C[C@@H](C)N(C(=O)c2ccc(Br)c(C(F)(F)F)c2)C3)n1,HepG2.117,luminescence,>0.5 µM
COc1cnc(-n2ccc(N)n2)c2[nH]cc(C(=O)C(=O)N3CCN(C(=O)c4ccccc4)CC3)c12,HeLa,trypan blue,>100 µM
C/C1=C\[C@H](O)C[C@@](C)(O)/C=C/[C@H](C(C)C)CC/C(C)=C/CCC1,Microglia,MTT,>100 µM
CC[C@@H](CCC[C@@H](CO)N(CCC(C)C)S(=O)(=O)c1ccc(N)cc1)NC(=O)[C@@H](N)C(c1ccccc1)c1ccccc1,T lymphoid cells,microscopy,>10 µM
CNc1cnc(-n2c(-n3nc(C)cc3C)nc3c(c2=O)C[C@@H](C)N(C(=O)c2ccc(Br)c(C(F)(F)F)c2)C3)nc1,HepG2.117,luminescence,>0.5 µM
CC[C@@H](CCC[C@@H](CO)N(CCC(C)C)S(=O)(=O)c1ccc(N)cc1)NC(=O)[C@@H](NC(=O)OC)C1c2ccccc2Oc2ccccc21,T lymphoid cells,microscopy,>10 µM
COc1cnc(-c2cnccn2)c2[nH]cc(C(=O)C(=O)N3CCN(C(=O)c4ccccn4)[C@H](C)C3)c12,HeLa,trypan blue,>100 µM
N#Cc1cc(CC(=O)c2ccccc2)c(=O)n2c1oc1ccccc12,HEF,,40 µg/mL
Cc1cc(C)n(-c2nc3c(c(=O)n2-c2ccc(NC(C)C)nc2)C[C@@H](C)N(C(=O)c2ccc(Br)c(C(F)(F)F)c2)C3)n1,HepG2.117,luminescence,>0.5 µM
COc1cc(NC(C)CCCNC(=O)OC(C)(C)C)c2nc(C(F)(F)F)cc(C)c2c1-c1ccccc1C,RAW 264.7,,>48 µg/mL
CN[C@H](C(=O)C[C@H](CCC[C@@H](CO)N(C(C)C)S(=O)(=O)c1ccc(N)cc1)C(F)(F)F)C(c1ccccc1)c1ccccc1,T lymphoid cells,microscopy,>10 µM
N#Cc1cc(NC(=O)c2ccccc2)c(=O)n2c1[nH]c1ccccc12,HEF,,40 µg/mL
CNCc1ccc(-c2ccc3ncnc(Nc4ccc(N5CCOCC5)cc4)c3c2)o1,HUH 9B,,>25 µM
COC(=O)N[C@@H](Cc1ccccc1Cl)C(=O)N[C@@H](C)CCC[C@@H](CO)N(C)S(=O)(=O)c1ccc(CO)cc1,T lymphoid cells,microscopy,>10 µM
N#Cc1cc(CC(=O)c2ccccc2)c(=O)n2c1sc1ccccc12,HEF,,200 µg/mL
COc1cc(C)c2c(-c3ccccc3)c(OC)cc(NC(C)CCCN)c2n1,RAW 264.7,,1.9 µg/mL
Cc1ncnn1-c1ncc(F)c2c(C(=O)C(=O)N3CCN(C(=O)c4ccccc4)CC3)c[nH]c12,HeLa,trypan blue,>100 µM
COc1ccc(C)cc1OCCBr,BJ,,>20 µM
CN1CCN(Cc2ccc(-c3ccc4ncnc(Nc5ccc(N6CCOCC6)cc5)c4c3)o2)CC1,HUH 9B,,>25 µM
CCOC(=O)c1cc(CC(=O)c2ccccc2)c(=O)n2c1oc1ccccc12,HEF,,40 µg/mL
COC(=O)c1cc(-c2cccs2)nc2ccccc12,BJ,,>20 µM
COc1cc(NC(C)CCCN)c2nc(C(F)(F)F)cc(C)c2c1-c1ccc(C(F)(F)F)cc1,RAW 264.7,,10.1 µg/mL

The last 6 rows once more:

{"compound": "Cc1ncnn1-c1ncc(F)c2c(C(=O)C(=O)N3CCN(C(=O)c4ccccc4)CC3)c[nH]c12", "cell line": "HeLa", "method": "trypan blue", "result": ">100 µM"}
{"compound": "COc1ccc(C)cc1OCCBr", "cell line": "BJ", "result": ">20 µM"}
{"compound": "CN1CCN(Cc2ccc(-c3ccc4ncnc(Nc5ccc(N6CCOCC6)cc5)c4c3)o2)CC1", "cell line": "HUH 9B", "result": ">25 µM"}
{"compound": "CCOC(=O)c1cc(CC(=O)c2ccccc2)c(=O)n2c1oc1ccccc12", "cell line": "HEF", "result": "40 µg/mL"}
{"compound": "COC(=O)c1cc(-c2cccs2)nc2ccccc12", "cell line": "BJ", "result": ">20 µM"}
{"compound": "COc1cc(NC(C)CCCN)c2nc(C(F)(F)F)cc(C)c2c1-c1ccc(C(F)(F)F)cc1", "cell line": "RAW 264.7", "result": "10.1 µg/mL"}